Results of unrelated studies side by side (data: NIAID ChemDB).

Shared fields: whole-cell or culture tests; species: HIV-2; measure: EC50

ECn: concentration that inhibits the pathogen or its effect by n%. An empty or dashed field is not shown. Conditions beyond the fields shown may differ between rows. Two numbers with a dash give a range or band.

| structure | strain or isolate | cell line | read by | result |
|---|---|---|---|---|
| Nc1nc(=O)n([C@@H]2C[C@@H](F)[C@H](CO)O2)cc1Cl | ROD | CEM + CEM/O |  | >50 µM |
| C=C1[C@H](CO)[C@H]1Cn1cnc2nc(N)nc(Cl)c21 |  |  |  | >100 µM |
| CC(C)C(=O)Oc1ccc(COP(=O)(OCc2ccc(OC(=O)C(C)C)cc2)OP(=O)([O-])OC[C@@H]2CC[C@H](n3ccc(=O)[nH]c3=O)O2)cc1 | ROD | CEM/TK- | syncytia | >50 µM |
| Cc1cn([C@H]2C=C[C@@H](COC(=O)CC3(C)C[C@](C)(O)CO3)O2)c(=O)[nH]c1=O |  | MT-2 | cytopathic effect | 4 µM |
| CCC(C)C(NC(=O)c1ccccc1SSc1ccccc1C(=O)NC(C(=O)O)C(C)CC)C(=O)O | ROD | CEM + CEM-SS | cytopathic effect / XTT | 2.6 µM |
| CCCCCCCCCCCCCCCCCCOP(=O)(OCCCC)OP(=O)(O)OP(=O)(O)OP(=O)(O)OC[C@@H]1C=C[C@H](n2cc(C)c(=O)[nH]c2=O)O1 | ROD | CEM/TK- | syncytia / visual reading | 0.032 µM |
| C=C1[C@H](CO)[C@H]1Cn1cnc2c(=O)[nH]c(N)nc21 |  |  |  | >100 µM |
| Cc1cn([C@H]2C=C[C@@H](CO)O2)c(=O)[nH]c1=O |  | CEM + CEM TK- |  | 33 µM |
| COC(=O)[C@H](CCCN=C(N)N)NC(=O)CCCCCNC(=O)CN(CCNC(=O)CN(CCNC(=O)OCc1ccccc1)C(=O)Cn1cnc2c(N)ncnc21)C(=O)Cn1cnc2c(=O)[nH]c(N)nc21 |  | PBMC/D194 + PBMC | cytopathic effect / MTT | 11 µM |
| COC(=O)[C@@H](NP(=O)(OC[C@@H]1C=C[C@H](n2cc(C)c(=O)[nH]c2=O)O1)Oc1ccccc1)c1ccccc1 |  | CEM + CEM TK- |  | 4.5 µM |
| COc1cc(CS(=O)(=O)c2cccc[n+]2[O-])ccc1OCc1ccccc1 | ROD | CEM + CEM-SS | syncytia | >4 µg/mL |
| CC(C)(C)C(=O)SCCOP(=O)(OCCSC(=O)C(C)(C)C)OC[C@@H]1O[C@H](n2cc(Cl)c(N)nc2=O)C[C@H]1F | ROD | CEM + CEM/O |  | >50 µM |
| Cc1cccc2c1CP(=O)(OC[C@@H]1CC[C@H](n3ccc(=O)[nH]c3=O)O1)CC2 | ROD | CEM/TK- | syncytia | >50 µM |
| CN[C@@H]1[C@H](O[C@@H]2OC[C@@H](O)[C@H](O)[C@H]2O)[C@@H](O)[C@H](O[C@H]2c3cc(C)c(C(=O)N[C@H](C)C(=O)O)c(O)c3-c3c(cc4c(c3O)C(=O)c3cc(OC)cc(O)c3C4=O)[C@@H]2O)O[C@@H]1C | ROD | CD4+ T-cell | MTS | 5.9 µM |
| CCOC(=O)c1nnsc1NCCCCNc1snnc1C(=O)OCC | ROD |  |  | >105 µM |
| NC(=O)c1cc2c([nH]c3ccccc32)c(-c2ccc(CO)o2)n1 | CBL-20 | C8166 | syncytia | 0.89 µM |
| c1ccc(CNCc2ccc(CN3CCCNCCNCCCNCC3)cc2)nc1 | ECO |  |  | 0.03 µg/mL |
| Cc1cn([C@H]2C[C@H](N=[N+]=[N-])[C@@H](CO)O2)c(=O)[nH]c1=O | ROD | C8166 | syncytia | 0.01534 µM |
| O=c1ccn([C@H]2CC[C@@H](CO)O2)c(=O)[nH]1 | ROD | CEM/TK- | syncytia | >250 µM |
| COP(=O)(c1cc(C)cc(CCC#N)c1)c1c(C(N)=O)[nH]c2ccc(Cl)c(F)c12 | ROD | H9 |  | >1.25 µM |
| C=C1[C@H](CO)[C@H]1Cn1cnc2c(=O)[nH]cnc21 |  |  |  | >100 µM |
| COC(=O)[C@H](CCCN=C(N)N)NC(=O)CCNC(=O)CN(CCNC(=O)CN(CCNC(=O)OCc1ccccc1)C(=O)Cn1cnc2c(=O)[nH]c(N)nc21)C(=O)Cn1cnc2c(N)ncnc21 |  | PBMC/D194 + PBMC | cytopathic effect / MTT | >200 µM |
| CCCC[C@H](NP(=O)(OC[C@@H]1C=C[C@H](n2cc(C)c(=O)[nH]c2=O)O1)Oc1ccccc1)C(=O)OC |  | CEM + CEM TK- |  | 0.22 µM |
| COC(=O)[C@H](CCCN=C(N)N)NC(=O)CCNC(=O)CN(CCNC(=O)CN(CCNC(=O)OCc1ccccc1)C(=O)Cn1cnc2c(N)ncnc21)C(=O)Cn1cnc2c(=O)[nH]c(N)nc21 |  | PBMC/D194 + PBMC | cytopathic effect / MTT | >200 µM |
| COc1ccc(/C=C(\C#N)Sc2ccccc2O)cc1 | ROD | CEM + CEM-SS | syncytia | >20 µg/mL |
| C=C1[C@H](CO)[C@H]1Cn1cnc2c(Cl)nc(N)nc21 |  |  |  | >100 µM |
| Nn1ccnc1 | ROD |  |  | 0.2–4 µg/mL |
| Cc1cn([C@H]2C=C[C@@H](CO)O2)c(=O)[nH]c1=O |  | CEM + CEM/O | cytopathic effect | 0.12 µM |
| CCc1c(Sc2cc(C)cc(C)c2)n(CCCCC(=O)NCCCCCCCCCCNC(=O)CCc2cn([C@H]3C[C@H](N=[N+]=[N-])[C@@H](CO)O3)c(=O)[nH]c2=O)c(=O)[nH]c1=O | D194 | PBMC |  | >10 µM |
| Cc1cc(CS(=O)(=O)c2cccc[n+]2[O-])c(C)cc1CS(O)(O)c1ccc[n+]([O-])c1 | ROD | CEM + CEM-SS | syncytia | ≥20 µg/mL |
| NC(N)=NCCC[C@H](NC(=O)CCNC(=O)CN(CCNC(=O)CN(CCNC(=O)OCc1ccccc1)C(=O)Cn1cnc2c(N)ncnc21)C(=O)Cn1cnc2c(=O)[nH]c(N)nc21)C(=O)O |  | PBMC/D194 + PBMC | cytopathic effect / MTT | >200 µM |
| O=c1[nH]c(=O)n([C@@H]2C[C@@H](F)[C@H](CO)O2)cc1Cl | ROD | CEM + CEM/O |  | >250 µM |
| CC(C)C(=O)Oc1ccc(COP(=O)(OCc2ccc(OC(=O)C(C)C)cc2)OP(=O)([O-])OC[C@@H]2C=C[C@H](n3ccc(=O)[nH]c3=O)O2)cc1 | ROD | CEM/TK- | syncytia | ≥50 µM |
| CC(C)(C)C(=O)SCCOP(=O)(OCCSC(=O)C(C)(C)C)OC[C@@H]1O[C@H](n2cc(Cl)c(=O)[nH]c2=O)C[C@H]1F | ROD | CEM + CEM/O |  | >50 µM |
| O=c1ccn([C@H]2C=C[C@@H](CO)O2)c(=O)[nH]1 | ROD | CEM/TK- | syncytia | >250 µM |